Values joined by “and” are separate entries in the source; they are usually repeats but may differ in a detail not shown here. Equal entries are not always repeated.
Legend:
Assay in all cases: cell-based or functional assay
[1] = biological target: human voltage-gated sodium channel Nav1.3 (human) (UniProt Q9NY46)
[2] = biological target: human voltage-gated sodium channel Nav1.4 (human) (UniProt P35499)
[3] = biological target: human voltage-gated sodium channel Nav1.7 (human) (UniProt Q15858)
[4] = biological target: human voltage-gated sodium channel Nav1.5 (human) (UniProt Q14524)
[5] = biological target: human voltage-gated sodium channel Nav1.3 (human), Q9NY46
[6] = biological target: human voltage-gated sodium channel Nav1.4 (human), P35499

Molecule	IC50 (IonWorks Quattro) [1]	IC50 (IonWorks Quattro) [2]	Nav1.4/Nav1.7 (ratio of IC50s) [2]	IC50 (IonWorks Quattro) [3]	IC50 (IonWorks Quattro) [4]	PX hNav1.4 Tonic IC50 [2] [µM]	PX hNav1.7 Tonic IC50 [3] [µM]	PX hNav1.5 Tonic IC50 [4] [µM]	IC50 (IonWorks Quattro) [5] [µM]	IC50 (IonWorks Quattro) [6] [µM]	Nav1.4/Nav1.7 (ratio of IC50s) [6]
[Glu20,28]JzTx-V(1-29) (peptide; modification not given)	> 5 µM	> 5 µM	5 and 3	0.95 µM and 1.44 µM	15.8 µM and 7.5 µM	–	–	–	–	–	–
[Glu20;Asn24;Tyr28]JzTx-V(1-29) (peptide; modification not given)	> 5 µM	> 5 µM	–	> 5 µM	> 5 µM	–	–	–	–	–	–
[Val20]JzTx-V(1-29) (peptide; modification not given)	3.37 µM	3 µM	31	0.1 µM	7.1 µM	–	–	–	–	–	–
[Atz(NPEG10)1;Glu20]JzTx-V(1-29) (peptide; modification not given)	> 5 µM	> 5 µM	28	–	15.1 µM	–	–	–	–	–	–
[Leu20]JzTx-V(1-29) (peptide; modification not given)	2.51 µM	1 µM	14	0.07 µM	8.3 µM	–	–	–	–	–	–
[Glu20;Tyr28;Asn29]JzTx-V(1-29) (peptide; modification not given)	> 5 µM	> 5 µM	–	–	> 5 µM	–	–	–	–	–	–
[Glu20;Gly28]JzTx-V(1-29) (peptide; modification not given)	> 5 µM	> 5 µM	17 and 13	0.3 µM and 0.37 µM	10.9 µM and 11.1 µM	–	–	–	–	–	–
[Glu20;Tyr28;Ser29]JzTx-V(1-29) (peptide; modification not given)	> 5 µM	> 5 µM	–	–	> 5 µM	–	–	–	–	–	–
[Glu20;Asp28]JzTx-V(1-29) (peptide; modification not given)	> 5 µM	> 5 µM	4	1.34 µM	13.9 µM	–	–	–	–	–	–
[Glu20;1-Nal24;Tyr28]JzTx-V(1-29) (peptide; modification not given)	> 7 µM	> 7 µM	–	0.3 µM	> 7 µM	–	–	–	–	–	–
[Glu1;1-Nal7]JzTx-V(1-29) (peptide; modification not given)	0.4 µM and 0.5 µM	0.7 µM and 0.5 µM	21 and 10	–	> 5 µM	–	–	–	–	–	–
[Tyr20]JzTx-V(1-29) (peptide; modification not given)	> 5 µM	4 µM	43	0.09 µM	10.8 µM	1.57	0.0059	> 10	–	–	–
[Glu20;Leu24;Tyr28]JzTx-V(1-29) (peptide; modification not given)	> 5 µM	> 5 µM	–	> 5 µM	> 5 µM	–	–	–	–	–	–
[Glu20;2-Nal24;Tyr28]JzTx-V(1-29) (peptide; modification not given)	> 7 µM	> 7 µM	–	1 µM	> 7 µM	–	–	–	–	–	–
[Atz(NPEG10)5;Nle6]JzTx-V(1-29) (peptide; modification not given)	> 7 µM	> 7 µM	–	> 7 µM	> 7 µM	–	–	–	–	–	–
[Glu20;Leu28]JzTx-V(1-29) (peptide; modification not given)	> 5 µM	> 5 µM	12	0.41 µM	6.7 µM	–	–	–	–	–	–
[Asp20]JzTx-V(1-29) (peptide; modification not given)	> 5 µM	> 5 µM	–	0.09 µM	11.1 µM	7.6	0.749	3.2	–	–	–
[Glu20;Cpa28]JzTx-V(1-29) (peptide; modification not given)	> 5 µM	> 5 µM	2	2.35 µM	16.7 µM	–	–	–	–	–	–
[Glu20;Ser28]JzTx-V(1-29) (peptide; modification not given)	> 5 µM	> 5 µM	62 and 34	0.08 µM and 0.15 µM	13.9 µM and 9.2 µM	–	–	–	–	–	–
[Gly20]JzTx-V(1-29) (peptide; modification not given)	0.98 µM	1.9 µM	29	0.06 µM	9.8 µM	0.197	0.0078	14.1	–	–	–
[Ile20]JzTx-V(1-29) (peptide; modification not given)	2.2 µM	1.3 µM	15	0.09 µM	8.6 µM	–	–	–	–	–	–

Molecule	IC50 (IonWorks Quattro) [1]	IC50 (IonWorks Quattro) [2]	Nav1.4/Nav1.7 (ratio of IC50s) [2]	IC50 (IonWorks Quattro) [3]	IC50 (IonWorks Quattro) [4]	PX hNav1.4 Tonic IC50 [2] [µM]	PX hNav1.7 Tonic IC50 [3] [µM]	PX hNav1.5 Tonic IC50 [4] [µM]	IC50 (IonWorks Quattro) [5] [µM]	IC50 (IonWorks Quattro) [6] [µM]	Nav1.4/Nav1.7 (ratio of IC50s) [6]
[Glu20]JzTx-V(1-29)-Trp (peptide; modification not given)	> 5 µM	> 5 µM	30	0.17 µM	11.1 µM	–	–	–	–	–	–
[Glu20;Nva28]JzTx-V(1-29) (peptide; modification not given)	> 5 µM	> 5 µM	66 and 34	0.08 µM and 0.15 µM	8.9 µM and 15.8 µM	–	–	–	–	–	–
[Glu20;Trp29]JzTx-V(1-29) (peptide; modification not given)	3.62 µM	> 5 µM	178	0.03 µM	6.9 µM	–	–	–	–	–	–
[Ser20]JzTx-V(1-29) (peptide; modification not given)	0.29 µM	0.4 µM	17	0.03 µM	9.2 µM	–	–	–	–	–	–
[Glu20]JzTx-V(1-29) (peptide; modification not given)	> 5 µM	> 5 µM	14	0.36 µM	9.8 µM	1.25	0.007	9.33	–	–	–
[Glu20;Tyr28;Leu29]JzTx-V(1-29) (peptide; modification not given)	3 µM and > 5 µM	> 5 µM	–	–	> 5 µM	–	–	–	–	–	–
[Glu20,29;Tyr28]JzTx-V(1-29) (peptide; modification not given)	> 5 µM	> 5 µM	–	–	> 5 µM	–	–	–	–	–	–
[Glu20;Val28]JzTx-V(1-29) (peptide; modification not given)	4.85 µM	4 µM	51	0.08 µM	12 µM	–	–	–	–	–	–
[Nle6;Atz(NPEG10)11]JzTx-V(1-29) (peptide; modification not given)	0.2 µM and 0.4 µM	0.4 µM and 0.5 µM	4	–	> 5 µM	–	–	–	–	–	–
[Glu20;Lys24;Tyr28]JzTx-V(1-29) (peptide; modification not given)	> 5 µM	> 5 µM	–	–	> 5 µM	–	–	–	–	–	–
[Glu20;Nva24;Tyr28]JzTx-V(1-29) (peptide; modification not given)	> 5 µM	> 5 µM	–	> 5 µM	> 5 µM	–	–	–	–	–	–
[Glu20;Tyr28]JzTx-V(1-29) (peptide; modification not given)	2.01 µM	> 3.5 µM	41	0.09 µM	8 µM	–	–	–	–	–	–
[Nle6;Atz(NPEG10)8]JzTx-V(1-29) (peptide; modification not given)	> 7 µM	> 7 µM	–	–	> 7 µM	–	–	–	–	–	–
[Glu20;Tyr28;Nle29]JzTx-V(1-29) (peptide; modification not given)	4 µM	> 5 µM	–	–	> 5 µM	–	–	–	–	–	–
[Glu20;Nle24;Tyr28]JzTx-V(1-29) (peptide; modification not given)	> 5 µM	> 5 µM	–	> 5 µM	> 5 µM	–	–	–	–	–	–
[Glu20;Val24;Tyr28]JzTx-V(1-29) (peptide; modification not given)	> 5 µM	> 5 µM	–	> 5 µM	> 5 µM	–	–	–	–	–	–
[Glu20;Cit28]JzTx-V(1-29) (peptide; modification not given)	> 5 µM	> 5 µM	46	0.11 µM	12 µM	–	–	–	–	–	–
[Glu20;Abu28]JzTx-V(1-29) (peptide; modification not given)	> 5 µM	> 5 µM	29 and 24	0.17 µM and 0.21 µM	8.2 µM and 11.1 µM	–	–	–	–	–	–
[Glu1,20;Tyr28]JzTx-V(1-29) (peptide; modification not given)	> 5 µM	> 5 µM	–	–	2 µM	–	–	–	–	–	–
YCQKWMWACDSKRACCEGLECKLWCRKII (modifications not checked) [[Atz(NPEG10)8;Glu20]JzTx-V(1-29)]	–	–	–	–	–	–	–	–	> 5	> 5	1

— patent US20150023988A1
